Anti-infective test results gathered from many reports (values: NIAID ChemDB through PubChem).

Common to all: whole-cell or culture tests; organism: Candida albicans; measure: zone

Neighbouring rows are from separate reports. Zones are inhibition diameters on agar. Blank or dashed fields: not listed here.

smiles	strain	method	dose	result
Fc1cccc(F)c1/C=N/n1c(C23CC4CC(CC(C4)C2)C3)nn(CN2CCN(c3ccccc3)CC2)c1=S	IFO 3007	agar diffusion	200 µg/disc	<10 mm
COc1c(CO)c(O)cc2c1C(=O)c1ccccc1C2=O		agar diffusion	13.3 µg/disc	0 mm
CC(=O)N1CCN(c2ccc(OC[C@H]3CO[C@](Cn4ccnc4)(c4ccc(Cl)cc4Cl)O3)cc2)CC1	ATCC 10231	agar diffusion	100 µg/mL	20 mm
O=C(COc1ccc(-c2nc(-c3ccccc3)c(-c3ccccc3)s2)cc1)CN1CCCC1	ATCC 10231	agar diffusion / agar	100 µg/mL	26 mm
Cc1nc2ccccc2n(CC(=O)NN2C(=O)CSC2c2ccccc2Cl)c1=O			50 µg/mL	7 mm
Nc1nc(COC(=O)c2ccccc2)cs1			25 µg/mL	<10 mm
c1ccc(-c2nc(-c3ccc(N4CCOCC4)cc3)sc2-c2ccccc2)cc1	ATCC 10231	agar diffusion / agar	100 µg/mL	20 mm
COc1ccc(C2C(Cl)C(=O)N2Nc2nc3ccccc3n3nnnc23)cc1	ATCC 2091	agar diffusion	50 µg/mL	8 mm
CCOC(=O)C1CCN(Cn2nc(C34CC5CC(CC(C5)C3)C4)n(/N=C/c3c(Cl)cccc3Cl)c2=S)CC1	IFO 3007	agar diffusion	200 µg/disc	<10 mm
Cc1ccc(-n2cc(-c3ccc([N+](=O)[O-])cc3)c(-c3ccn[nH]3)n2)cc1		agar diffusion / agar	5 mg/mL	10 mm
COc1cccc(/C=N/c2nnc(-c3cc4ccccc4oc3=O)o2)c1	ATCC 10231	agar diffusion	100 µg/mL	14 mm
COc1c(N2CC3CCCNC3C2)c(F)cc2c(=O)c(C(=O)[O-])cn(C3CC3)c12.[Cl][Mn+].c1c[nH]cn1		agar diffusion	100 µM	0 mm
Nc1nc(COC(=O)C2(c3ccc(Cl)cc3)CC2)cs1			25 µg/mL	<10 mm
Clc1ccccc1C(c1ccccc1)(c1ccccc1)n1ccnc1	IFO 3007	agar diffusion	100 µg/disc	21 mm
O=C1CSC(c2ccc([N+](=O)[O-])cc2)N1Nc1nc2ccccc2n2nnnc12	ATCC 2091	agar diffusion	100 µg/mL	13 mm
Cc1nc2ccccc2n(CC(=O)NN2C(=O)CSC2c2ccc(N(C)C)cc2)c1=O			100 µg/mL	24 mm
O=C1N[C@H](Cc2ccccc2)C(=O)N2CCC[C@H]12	MTCC 277	agar diffusion / agar	128 µg/mL	16 mm
Cc1nc2ccccc2n(CC(=O)NN2C(=O)CSC2c2ccc(C(F)(F)F)cc2)c1=O			50 µg/mL	14 mm
NC(=S)c1ccc(OC(=O)CN2CCCC2)cc1	ATCC 10231	agar diffusion / agar	100 µg/mL	23 mm
COc1cc2c(c(O)c1C)C(=O)c1c(ccc(OC)c1O)C2=O		agar diffusion	13.3 µg/disc	7.5 mm
CCOC(=O)C1=NN(c2ccccc2)C2=Nc3nccc(-c4nn(-c5ccccc5)cc4-c4ccc([N+](=O)[O-])cc4)c3C(=O)C12		agar diffusion / agar	5 mg/mL	9 mm
C/C=C/C1=CC2=CC(=O)[C@](C)(OC(=O)c3c(C)cc(O)cc3OC)C(=O)C2=CO1	ATCC 64548	agar diffusion	0.1 µg/disc	0 mm
c1ccc(-c2nc(-c3ccc(Nc4nncs4)cc3)sc2-c2ccccc2)cc1	ATCC 10231	agar diffusion / agar	100 µg/mL	25 mm
CN1CCN(Cn2nc(C34CC5CC(CC(C5)C3)C4)n(/N=C/c3c(Cl)cccc3Cl)c2=S)CC1	IFO 3007	agar diffusion	200 µg/disc	<10 mm
CCCCOCc1c(O)cc2c(c1O)C(=O)c1ccccc1C2=O		agar diffusion	13.3 µg/disc	<6.2 mm
COc1ccc(C2SCC(=O)N2NC(=O)Cn2c(=O)c(C)nc3ccccc32)cc1O			100 µg/mL	18 mm
O=C1C(Cl)C(c2ccccc2F)N1Nc1nc2ccccc2n2nnnc12	ATCC 2091	agar diffusion	100 µg/mL	10 mm
COc1ccc(/C=N/n2c(C34CC5CC(CC(C5)C3)C4)n[nH]c2=S)cc1OC	IFO 3007	agar diffusion	200 µg/disc	<10 mm
COc1ccc(C2SCC(=O)N2NC(=O)Cn2c(=O)c(C)nc3ccccc32)cc1			100 µg/mL	20 mm
Nc1nc(COC(=O)c2ccc(Cl)cc2)cs1			25 µg/mL	<10 mm
O=C1CSC(c2ccccc2F)N1Nc1nc2ccccc2n2nnnc12	ATCC 2091	agar diffusion	50 µg/mL	7 mm
Cc1ccc(-n2cc(-c3ccc([N+](=O)[O-])cc3)c(C(=O)/C=C/N(C)C)n2)cc1		agar diffusion / agar	5 mg/mL	7 mm
COc1c(N2CC3CCCNC3C2)c(F)cc2c(=O)c(C(=O)[O-])cn(C3CC3)c12.[Cl][Co+].c1c[nH]cn1		agar diffusion	100 µM	15 mm
Cc1ccc(-n2cc(-c3ccc([N+](=O)[O-])cc3)c(-c3ccon3)n2)cc1		agar diffusion / agar	5 mg/mL	9 mm
Fc1cccc(F)c1/C=N/n1c(C23CC4CC(CC(C4)C2)C3)n[nH]c1=S	IFO 3007	agar diffusion	200 µg/disc	<10 mm
O=c1oc2ccccc2cc1-c1nnc(/N=C/c2ccc(Cl)cc2)o1	ATCC 10231	agar diffusion	100 µg/mL	15 mm
CSCC[C@H]1NC(=O)[C@H]2CCCN2C1=O	MTCC 277	agar diffusion / agar	64 µg/mL	18 mm
O=c1oc2ccccc2cc1-c1nnc(/N=C/c2cccc(F)c2)o1	ATCC 10231	agar diffusion	100 µg/mL	11 mm
C[C@H]1[C@H](O)[C@@H](C)/C=C/C=C/C=C/C=C/C=C/C=C/C=C/[C@H](O[C@@H]2O[C@H](C)[C@@H](O)[C@H](N)[C@@H]2O)C[C@@H]2O[C@](O)(C[C@@H](O)C[C@@H](O)CC[C@H](O)[C@@H](O)C[C@@H](O)CC(=O)O[C@H]1C)C[C@H](O)[C@H]2C(=O)O		agar diffusion / agar	1000 µg/mL	17 mm
Nc1nc(COC(=O)c2cccc([N+](=O)[O-])c2Cl)cs1			25 µg/mL	<10 mm

The first 6 rows once more:

Fc1cccc(F)c1/C=N/n1c(C23CC4CC(CC(C4)C2)C3)nn(CN2CCN(c3ccccc3)CC2)c1=S ; strain: IFO 3007 ; method: agar diffusion ; dose: 200 µg/disc ; result: <10 mm
COc1c(CO)c(O)cc2c1C(=O)c1ccccc1C2=O ; method: agar diffusion ; dose: 13.3 µg/disc ; result: 0 mm
CC(=O)N1CCN(c2ccc(OC[C@H]3CO[C@](Cn4ccnc4)(c4ccc(Cl)cc4Cl)O3)cc2)CC1 ; strain: ATCC 10231 ; method: agar diffusion ; dose: 100 µg/mL ; result: 20 mm
O=C(COc1ccc(-c2nc(-c3ccccc3)c(-c3ccccc3)s2)cc1)CN1CCCC1 ; strain: ATCC 10231 ; method: agar diffusion / agar ; dose: 100 µg/mL ; result: 26 mm
Cc1nc2ccccc2n(CC(=O)NN2C(=O)CSC2c2ccccc2Cl)c1=O ; dose: 50 µg/mL ; result: 7 mm
Nc1nc(COC(=O)c2ccccc2)cs1 ; dose: 25 µg/mL ; result: <10 mm